Laboratory results: US20240309070

How the values were obtained:
[1] = molecular target: B5-CAR-050
[2] = molecular target: B5-CAR-051

VV B5 monomer protein (Wyeth Vaccinia strain B5 with C-terminal AVI tag and HIS6 tag)
CAR+ % Parent [1]: 95.6% | CAR+ % Parent [2]: 91.9%
